Anti-infective test results gathered from many reports (values: NIAID ChemDB through PubChem).

Shared fields: growth or infection tests; agent: Mycobacterium tuberculosis

ECn is the concentration giving n% inhibition of infection, replication or growth.

| SMILES | tested at | setting | read by | measure | mutations | strain | value |
|---|---|---|---|---|---|---|---|
| CN(C)c1ccc(P(=O)(O)c2ccc(N(C)C)cc2)cc1 | - | - | BACTEC | MIC bound | - | H37Rv | >12.5 µg/mL |
| O=C(O)CN1CCCN(CC(=O)O)Cc2cccc(n2)CN(CC(=O)O)CCC1 | - | - | radiometric | EC50 | - | H37Rv | <7.5 µg/mL |
| CC[C@H]1OC(=O)[C@H](C)[C@@H](O[C@H]2C[C@@](C)(OC)[C@@H](O)[C@H](C)O2)[C@H](C)[C@@H](O[C@@H]2O[C@H](C)C[C@H](N(C)C)[C@H]2O)[C@](C)(O)C[C@@H](C)/C(=N\OCOCCOC)[C@H](C)[C@@H](O)[C@]1(C)O | - | - | - | MIC90 | - | 190 isolates | 4 µg/mL |
| CC[C@@H](CO)NCCN[C@@H](CC)CO | - | - | - | MIC | - | 29 isolates drug-resistant | 5 µg/mL |
| CC1COc2c(N3CCN(C)CC3)c(F)cc3c(=O)c(C(=O)O)cn1c23 | - | - | - | MIC90 | - | 190 isolates | 1 µg/mL |
| O=C1NC(CN2CCCC(O)C2)C(=O)NC1CN1CCCC(O)C1 | - | - | BACTEC | MIC bound | - | H37Rv | >12.5 µg/mL |
| NC[C@H]1O[C@H](O[C@H]2[C@H](O)[C@@H](O[C@H]3O[C@H](CO)[C@@H](O)[C@H](N)[C@H]3O)[C@H](N)C[C@@H]2N)[C@H](O)[C@@H](O)[C@@H]1O | - | - | resazurin / fluorescence | MIC90 | Streptomycin-resistant | H37Rv | 0.95 µg/mL |
| CO[C@H]1/C=C/O[C@@]2(C)Oc3c(C)c(O)c4c(O)c(cc(OCC(=O)O)c4c3C2=O)NC(=O)/C(C)=C\C=C\[C@H](C)[C@H](O)[C@@H](C)[C@@H](O)[C@@H](C)[C@H](OC(C)=O)[C@@H]1C | - | - | - | MIC | - | BCG | 0.15 µg/mL |
| COc1cc(C2c3cc4c(cc3C3OC(=O)C2C3CO)OCO4)cc(OC)c1OC | 12.5 µg/mL | - | BACTEC | inhibition | - | H37Rv | 13% |
| O=C1/C(=C\c2ccccc2)CN(C(=O)c2ccc(/C=C/C(=O)c3ccc(Cl)c(Cl)c3)cc2)C/C1=C/c1ccccc1 | - | - | - | EC50 | - | H37Rv | >6.25 µg/mL |
| Cc1nc([N+](=O)[O-])cn1C[C@H](O)[C@H]1OC[C@H]2OC(C)(C)O[C@@H]12 | - | - | - | MIC | - | H37Rv | >25 µg/mL |
| CCN(CC)CC1CCCCN1CC(=O)N1c2ccccc2NC(=O)CC1C | - | - | BACTEC | MIC bound | - | H37Rv | >12.5 µg/mL |
| O=C1/C(=C/c2ccccc2)CN(C(=O)c2ccc([N+](=O)[O-])cc2)C/C1=C\c1ccccc1 | 6.25 µg/mL | - | - | inhibition | - | H37Rv | 0% |
| O=C1O/C(=C(/C(=O)O)c2ccc(O)cc2)C(O)=C1c1cc2c3c(c(O)cc(C4=C(O)/C(=C(\C(=O)O)c5ccc(O)cc5)OC4=O)c3c1)OC2=O | - | - | BACTEC | MIC | - | H37Rv | ≥12.5 µg/mL |
| CO[C@H]1C([C@H](O)Cn2cnc([N+](=O)[O-])c2)O[C@@H]2OC(C)(C)O[C@@H]21 | - | - | - | MIC | - | H37Rv | 25 µg/mL |
| S=C1SCN(CCc2ccccc2)CN1CCc1ccccc1 | - | - | BACTEC | MIC bound | - | H37Rv | >12.5 µg/mL |
| Cc1cc(C)[n+]2[nH]c(C(=O)NS(=O)(=O)c3ccccc3)nc2n1 | - | - | broth dilution | MIC | - | - | >32 µg/mL |
| N#CC(O[C@@H]1O[C@H](CO[C@@H]2O[C@H](CO)[C@@H](O)[C@H](O)[C@H]2O)[C@@H](O)[C@H](O)[C@H]1O)c1ccccc1 | - | - | BACTEC | MIC bound | - | H37Rv | >12.5 µg/mL |
| O=C(CN1CCOCC1)N/N=C\C(=O)c1ccc(-c2ccccc2)cc1 | - | - | - | MIC | - | - | >50 µg/mL |
| O=c1cc(-c2ccc(O)c(O)c2-c2c(O)cc(O)c3c(=O)cc(-c4ccc(O)cc4)oc23)oc2cc(O)cc(O)c12 | - | - | resazurin | MIC | - | MTCS2 | 19.53 µg/mL |
| Cn1nnnc1-c1ccc(N2CCN(C(=O)c3cccc(Cl)c3)CC2)cc1 | - | - | turbidity | MIC50 | - | BioA underexpression strain | >50 µM |
| COC1=C2CC(C)CC(OC)C(O)C(C)/C=C(\C)C(OC(N)=O)C(OC)/C=C\C=C(/C)C(=O)NC(=C(C=NC(C)(C)C)C1=O)C2=O | - | - | - | MIC | - | H37Rv | 12.5 µg/mL |
| CC(=O)OCC1=C(C(=O)O)N2C(=O)[C@@H](NC(=O)Cc3cccs3)[C@H]2SC1 | - | - | - | MIC | - | H37Ra | 32 µg/mL |
| O=C(Cc1cccs1)N[C@@H]1C(=O)N2C(C(=O)[O-])=C(C[n+]3ccccc3)CS[C@H]12 | - | - | resazurin | MIC | - | H37Rv | 4 µg/mL |
| O=c1c2cccc3c4ccccc4c4sc5ccccc5n1-c4c23 | - | - | BACTEC | MIC bound | - | H37Rv | >12.5 µg/mL |
| CC1(C)O[C@H]2[C@@H]([C@@H](O)Cn3ccnc3[N+](=O)[O-])OC[C@H]2O1 | - | - | - | MIC | - | H37Rv | 6.25 µg/mL |
| COC(=O)C1C2CC3c4[nH]c5cc(OC)ccc5c4CCN3CC2CC(OC(=O)CC(C)=O)C1OC | - | - | BACTEC | MIC bound | - | H37Rv | >12.5 µg/mL |
| CO[C@H]1C([C@H]2Cn3cc([N+](=O)[O-])nc3O2)O[C@@H]2OC(C)(C)O[C@@H]21 | - | - | - | MIC | - | H37Rv | 25 µg/mL |
| CC(=O)c1ccc(N2CCN(C(=O)c3cccc(Cl)c3)CC2)s1 | - | - | turbidity | MIC90 | - | Wild type without biotin | 34.1 µM |
| O=C(CN1CCCC1)N/N=C\C(=O)c1ccc(Sc2ccccc2)cc1 | - | - | - | MIC | - | - | >50 µg/mL |
| O=C(O)CCN1CSC(=S)N(Cc2ccccc2)C1 | - | - | - | MIC | - | H37Rv | 50 µg/mL |
| CO/N=C(/C(=O)N[C@@H]1C(=O)N2C(C(=O)O)=C(COC(N)=O)CS[C@H]12)c1ccco1 | - | - | - | MIC | - | H37Ra | 64 µg/mL |
| CCCCCCCCCCCCCCCCN1CSC(=S)N(Cc2ccccc2)C1 | - | - | - | MIC | - | H37Rv | 50 µg/mL |
| C/C=C/C/C=C/CCC(=O)[C@H]1O[C@H]1C(N)=O | - | - | - | MIC | - | Isolate 2H339 | 3 µg/mL |
| O=C(O)c1cn(C2CC2)c2cc(N3CCN(C/C=C/CN4CCNCC4)CC3)c(F)cc2c1=O | 6.25 µg/mL | - | - | inhibition | - | H37Rv | 33% |
| CN[C@@H]1[C@H](O[C@H]2[C@H](O[C@H]3[C@H](O)[C@@H](O)[C@H](N=C(N)N)[C@@H](O)[C@@H]3N=C(N)N)O[C@@H](C)[C@]2(O)C=O)O[C@@H](CO)[C@H](O)[C@H]1O | - | - | resazurin / fluorescence | MIC90 | Rifampicin-resistant | H37Rv | 0.27 µg/mL |
| CC1(C)S[C@@H]2[C@H](NC(=O)[C@H](N)c3ccccc3)C(=O)N2[C@H]1C(=O)O | - | - | resazurin | MIC | - | H37Rv | 32 µg/mL |
| COc1ccc(CN(C)CCCC(C#N)(c2ccc(OC)c(OC)c2)C(C)C)cc1OC | - | - | resazurin | MIC99 | - | H37Rv | >1000 µM |
| C[C@@H](O)[C@H]1C(=O)N2C(C(=O)O)=C([C@H]3CCCO3)S[C@H]12 | - | - | resazurin | MBC | - | H37Rv | 4 µg/mL |
| O=C(O)CCN1CSC(=S)N(C2CCCCC2)C1 | - | - | - | MIC | - | H37Rv | 100 µg/mL |
| CCn1cc(C(=O)O)c(=O)c2cc(F)c(N3CCNCC3)cc21 | - | - | - | MIC90 | - | 190 isolates | 16 µg/mL |
| Cc1c(F)c(N2CCNC(C)C2)cc2c1c(=O)c(C(=O)O)cn2C1CC1 | - | - | - | MIC90 | - | 22 strains | 3.13 µg/mL |
| COc1ccc2c3c(c(=O)n(C)c2c1OC)C=CC(C)(C)O3 | - | - | BACTEC | MIC | - | H37Rv | ≥12.5 µg/mL |
| CCCc1c2c([nH]c(=O)c1C)C(=O)c1[nH]c(=O)c(C)c(CCC)c1C2=O | - | - | resazurin / fluorescence | MIC90 | Isoniazid-resistant | H37Rv | 0.13 µg/mL |
| O=C(O)c1cn(C2CC2)c2cc(N3CCN(Cc4ccc(CN5CCN(c6cc7c(cc6F)c(=O)c(C(=O)O)cn7C6CC6)CC5)cc4)CC3)c(F)cc2c1=O | 6.25 µg/mL | - | - | inhibition | - | H37Rv | 64% |
| CC(=O)c1ccc(N2CCC(C(=O)c3ccc4c(c3)OCO4)CC2)cc1 | - | - | turbidity | MIC50 | - | Wild type without biotin | >50 µM |
| O=C(O)C(Cc1ccccc1)N1CSC(=S)N(Cc2ccccc2)C1 | - | - | - | MIC | - | H37Rv | 50 µg/mL |
| N=c1c2ccccc2nc2n1CCCCCCC2 | 12.5 µg/mL | - | BACTEC | inhibition | - | H37Rv | 1% |
| CC(C)=CCc1cc(/C=C/C(=O)c2ccc(O)c(CC=C(C)C)c2O)ccc1O | - | - | resazurin | MIC | - | MTCS1 | >39.06 µg/mL |
| O=C(O)CCN1CSC(=S)N(c2ccco2)C1 | - | - | - | MIC | - | H37Rv | 50 µg/mL |
| C#CCN(Cc1ccc2nc(N)[nH]c(=O)c2c1)c1ccc(C(=O)NC(CCC(=O)O)C(=O)O)cc1 | - | - | BACTEC | MIC | - | H37Rv | >128 µg/mL |
| Cc1ccc(NC(=O)/C=C/C(=O)N2C/C(=C\c3ccccc3)C(=O)/C(=C/c3ccccc3)C2)cc1 | 6.25 µg/mL | - | - | inhibition | - | H37Rv | 4% |
| O=c1c2oc3ccccc3oc=2c(=O)c2ccccc12 | - | - | BACTEC | MIC bound | - | H37Rv | >12.5 µg/mL |
| O=C1/C(=C/c2ccccc2)CN(C(=O)c2ccccc2)C/C1=C\c1ccccc1 | 6.25 µg/mL | - | - | inhibition | - | H37Rv | 24% |
| NNC(=O)c1ccncc1.O=C(O)c1cn(C2CC2)c2cc(N3CCNCC3)c(F)cc2c1=O | - | - | - | MIC90 | - | 190 isolates | 0.1 µg/mL |
| NNC(=O)c1ccncc1 | - | - | resazurin | MIC | - | H37Rv | 25 µg/mL |
| O=[N+]([O-])c1ccc(CS(=O)(=O)c2ccccc2)o1 | - | - | BACTEC | MIC bound | - | H37Rv | >12.5 µg/mL |
| COc1cc(C2=NN(C(=O)COc3ccc4ccccc4c3)[C@H](c3ccc(O)cc3)C2)c(C)cc1OCC(=O)O | 6.25 µg/mL | - | - | inhibition | - | Isoniazid-resistant | 58% |
| CC1(C)S[C@@H]2[C@H](NC(=O)[C@H](N)c3ccc(O)cc3)C(=O)N2[C@H]1C(=O)O | - | - | resazurin | MIC | - | H37Rv | 64 µg/mL |
| O=C1/C(=C/c2ccccc2)CN(C(=O)c2ccc(/C=C/C(=O)c3ccc([N+](=O)[O-])cc3)cc2)C/C1=C\c1ccccc1 | 6.25 µg/mL | - | - | inhibition | - | H37Rv | 6% |
| O=C(O)CN1CSC(=S)N(C2CC2)C1 | - | - | - | MIC | - | H37Rv | 50 µg/mL |
| COC(=O)c1ccc(N2CCN(C(=O)c3cccc(Cl)c3)CC2)cc1 | - | - | turbidity | MIC50 | - | Wild type without biotin | >50 µM |
| O=C(/C=C/c1ccccc1)c1ccc(O)cc1 | - | 21 d | resazurin | MIC | - | H37Rv | 32 µg/mL |
| CO[C@@H]1[C@@H](O[C@@H]2O[C@H](C)[C@@H](O[C@H]3C[C@@](C)(O)[C@@H](OC(=O)CC(C)C)[C@H](C)O3)[C@H](N(C)C)[C@H]2O)[C@@H](CC=O)C[C@@H](C)[C@@H](O)/C=C/C=C/C[C@@H](C)OC(=O)C[C@H]1OC(C)=O | - | - | - | MIC90 | - | 190 isolates | 128 µg/mL |
| O=C1/C(=C/c2ccccc2)CN(C(=O)/C=C/c2ccc(Cl)c(Cl)c2)C/C1=C\c1ccccc1 | - | - | - | EC50 | - | H37Rv | >6.25 µg/mL |
| CCC(=O)N1CCN(c2ccc(C(C)=O)cc2)CC1 | - | - | turbidity | MIC50 | - | BioA underexpression strain | >50 µM |
| O=C(O)CCCCCN1CSC(=S)N(C2CC2)C1 | - | - | - | MIC | - | H37Rv | 25 µg/mL |
| CCOC(=O)C1=C(C)N(NC(=O)c2ccccc2)C2(O)CCCC12C(=O)OCC | 6.25 µg/mL | - | resazurin | inhibition | - | H37Rv | -2% |
| O=C(O)c1cn(C2CC2)c2cc(N3CCN(C/C=C/CN4CCN(c5ccccc5F)CC4)CC3)c(F)cc2c1=O | 6.25 µg/mL | - | - | inhibition | - | H37Rv | 92% |
| C[C@H]1COc2c(N3CCN(C)CC3)c(F)cc3c(=O)c(C(=O)O)cn1c23 | - | - | - | MIC50 | - | 25 strains | 0.39 µg/mL |
| COC(=O)[C@@H]1Cc2c([nH]c3ccccc23)C(C)(C)N1 | - | - | resazurin | MIC bound | - | H37Rv | >6.25 µg/mL |
| CCC[C@H]1C[C@@H]2CC[C@@H](O2)[C@H](C)C(=O)O[C@@H]([C@H](C)[C@H]2CC[C@@H](C[C@@H](CCC)N(C)C)O2)[C@H](C)[C@@H]2CC[C@@H](O2)[C@@H](C)C(=O)O1 | - | - | - | MIC | - | 11 isolates | 2 µg/mL |
| O=C(N/N=C/c1ccccc1O)c1ccccc1-n1cccc1 | 12.5 µg/mL | - | BACTEC | inhibition | - | H37Rv | 33% |
| CN1Cc2cc(N3CCN(C(=O)c4cccc(Cl)c4)CC3)ccc2C1=O | - | - | turbidity | MIC90 | - | BioA underexpression strain | 9.4 µM |
| CC(/C=C1/C(=O)N(C)C(CC(C)C(Cl)(Cl)Cl)C(=O)N1C)C(Cl)(Cl)Cl | 12.5 µg/mL | - | BACTEC | inhibition | - | H37Rv | -10% |
| O=C1OCc2cc(N3CCN(C(=O)c4cccc(Cl)c4)CC3)ccc21 | - | - | turbidity | MIC90 | - | BioA overexpression strain | >50 µM |
| O=C(CN1CCOCC1)N/N=C\C(=O)c1ccccc1 | - | - | - | MIC | - | - | >50 µg/mL |
| O=C(c1cccs1)N(C(=S)N1CCN(c2ccccc2)CC1)c1ccccc1 | 6.25 µg/mL | - | resazurin | inhibition | - | H37Rv | -2% |
| O=C1CCc2cc(N3CCN(C(=O)c4ccc5c(c4)OCO5)CC3)ccc21 | - | - | turbidity | MIC90 | - | BioA overexpression strain | 26.8 µM |

Rows are shuffled and stem from different studies. MIC50, MIC90 and the like: level of inhibition, or share of isolates inhibited. MIC bound: limit read from a one-dose screen. Inhibition is in % at the dose shown (toxicity tests: loss of growth or viability). An empty or dashed field is not shown.